Assay results published in publication PMC7728077, “Double-Headed Cationic Lipopeptides: An Emerging Class of Antimicrobials” (International Journal of Molecular Sciences, 2020).
Square brackets hold non-standard residues; d marks the D form. Peptide text beside a SMILES is read from it. * marks the point of attachment. Palmitoyl = CCCCCCCCCCCCCCCC(=O)*; Dab = NCC[C@H](N)C(=O)O

System: POPG large unilamellar vesicles (LUVs)
Test: Isothermal titration calorimetry, binding to POPG
Conditions: ITC, 298.15 K
Description: Isothermal titration calorimetry (ITC) experiments were carried out at 298.15 K using an AutoITC isothermal titration calorimeter (MicroCal Inc., GE Healthcare, Northampton, MA, USA) equipped with a 1.4491 mL sample cell and a reference cell. A typical ITC experiment involved a series of consecutive injections of 10.02 µL aliquots of the titrant (2 µL for the first injection only) into the reaction cell, at an interval of 4 min. The stirrer speed was constantly kept at 300 rpm to provide thorough mixing inside the reaction cell. Three types of ITC experiments were performed. These included lipopeptides binding to POPG, POPC, and LPS. The experiments were carried out by titration of 1.3 mM POPG or POPC LUVs into 0.05 or 0.1 mM lipopeptide solutions and the titration of 0.5 or 0.75 mM lipopeptide solution into 200 or 400 µg/mL LPS solution. The molecular mass of LPS was assumed to be 20,000 Da. To assess the heat of dilution, control experiments were performed by titration of an appropriate titrant into PBS. Final results were evaluated with an ITC module for ORIGIN 7 software, provided by MicroCal, Inc. (Northampton, MA, USA). The binding constant, stoichiometry, and enthalpy of interactions were directly determined from ITC experiment by fitting one of the built-in curve fitting models to the experimental data points. Changes in entropy (∆S°) and the Gibbs free energy (∆G°) were calculated from the following equation: ∆G^°=−RTln(55.5Ka)=∆H^°−T∆S^° where 55.5 is the molar concentration of water, R is the gas constant (1.986 cal·mol^−1·K^−1), and T is the absolute temperature.

[1] = calculated from ΔG° = −RTln(55.5Ka) = ΔH° − TΔS°, single transition or first line
[2] = calculated, second line (second binding event)
[3] = single transition or first line of two binding events
[4] = calculated from −RTln(55.5Ka), single transition or first line

SMILES	TΔS°, POPG [1]	TΔS°, POPG [2]	ΔG°, POPG [2]	ΔH°, POPG (second line (second binding event))	n (stoichiometry), POPG (second line printed for the peptide (second binding event))	ΔH°, POPG [3]	ΔG°, POPG [4]
CCCCCCCCCCCCCCCC(=O)NCC[C@H](NC(=O)[C@@H](N)CCCCN)C(=O)N[C@@H](CCCCN)C(N)=O [K(DabC16)K-NH2] (H-Lys-[Dab](Palmitoyl)-Lys-NH2)	9.41 ± 0.17 kcal/mol	10.68 ± 0.36 kcal/mol	-11.36 ± 0.36 kcal/mol	-0.68 ± 0.04 kcal/mol	1.57 ± 0.07	-1.22 ± 0.06 kcal/mol	
CCCCCCCCCCCCCCCC(=O)NCCC[C@H](NC(=O)[C@@H](N)CCCCN)C(=O)N[C@@H](CCCCN)C(N)=O [K(OC16)K-NH2]	8.92 ± 0.16 kcal/mol					-1.35 ± 0.03 kcal/mol	-10.27 ± 0.16 kcal/mol
CCCCCCCCCCCCCCCC(=O)NCCCC[C@H](NC(=O)[C@@H](N)CCCCN)C(=O)N[C@@H](CCCCN)C(N)=O [K(KC16)K-NH2]	8.85 ± 0.20 kcal/mol					-1.24 ± 0.04 kcal/mol	-10.10 ± 0.15 kcal/mol
